In patent US20040157280A1, “Antibody mediated ozone generation” (priority 2001, published 2004):
Entries after “also recorded” stand apart in the source; their conditions may differ.

Assays:
[1] = Oxygen isotope experiments (TCEP oxide mass spectra); type: biochemical; conditions: ^16O2, H2^18O PB, UV
[2] = Oxidation of indigo carmine 1 and ^18O incorporation into 2 by different reactive oxygen species; type: physicochemical; conditions: for Reaction to form 2: oxidant added to indigo carmine 1 (1 mM), PB pH 7.4

Row | Compound | ^18O incorporation from H2^18O into H2O2 (in words) [1] | cleavage of the double bond of 1 to yield isatin sulfonic acid 2 ([2]; NaOCl 2 mM, PBS pH 7.4, 1 100 μM) | Reaction to form 2 [2] | ^18O incorporation into 2 ([2]; H2^18O (>95%) PB)
1 | Cc1c[nH]c2ccccc12 [3-methylindole] | negligible ^18O incorporation; also recorded: does not include oxygen incorporation from H2^18O |  |  | 
2 | OCl [HOCl, Hypochlorous acid] |  | did not cleave the double bond; also recorded: does not cleave the double bond | no | 
3 | O=O [^1O2^*, singlet oxygen] |  |  | yes | No
4 | OO [Clone H2O2, hydrogen peroxide] |  |  | no | 
5 | potassium superoxide [HO2•/O2•^−] |  |  | no | 
